Results of unrelated studies side by side (data: NIAID ChemDB).

Common to all: toxicity to cultured cells; measure: CC50

CCn: concentration that lowers growth or viability of the cells by n%.

structure | cell line | method | conditions | result
CCS/C(Nc1cccc(C(F)(F)F)c1)=C(/C#N)S(=O)(=O)c1ccccc1 | HeLa | MTT / absorbance | - | 5.43 µM
CC(C)C(C(=O)NC(=O)NC(=O)NC(C)(C)C)c1ccc(Cl)cc1 | MDCK | MTS | - | >300 µM
C=C(C)C1CCC2[C@]3(CC[C@]4(C)/C(=C(\C)CC/C=C(/C)C(=O)O)CC[C@@]24C)C[C@]13CCC(=O)O | BEL-7402 | MTT | - | 24.88 µM
C[n+]1cc2c3c(ccc2c2ccc4cc5c(cc4c21)OCO5)OCO3 | Jurkat cells | luminescence | - | 7.3 µM
CS/C(Nc1ccccc1C(F)(F)F)=C(/C#N)S(=O)(=O)c1ccccc1 | HeLa | MTT / absorbance | - | <0.05 µM
N=C(N)c1cn([C@@H]2O[C@H](CO)[C@@H](O)[C@@H]2O)c2ncnc(N)c12 | MEF | - | - | 235 µM
Cc1cn([C@H]2C[C@H](N=[N+]=[N-])[C@@H](CO)O2)c(=O)[nH]c1=O | HuT-78 | MTT | - | >10 µM
O=C1C=CC(=O)c2c(O)c(Cl)c(Cl)c(O)c21 | Jurkat cells | luminescence | - | 0.4 µM
CCNc1nc(OC)nc(N2CCN(c3ccc(N4C[C@H](CNC(C)=O)OC4=O)cc3F)CC2)n1 | THP-1 | MTT | - | 54.2 µg/mL
CC(C)(C)NC(=O)NC(=O)NC(=O)c1c(F)cccc1F | MDCK | MTS | - | >300 µM
OCCNc1ccnc2cc(Cl)ccc12 | HeLa cells | MTT | - | >100 µM
CC(C)[C@H](C(=O)NC(=S)Nc1nc(Cl)cc(Cl)n1)c1ccc(Cl)cc1 | MDCK | MTS | - | >300 µM
O=C(/C=C/c1ccc(O)c(O)c1)OCCc1ccccc1 | Jurkat cells | luminescence | - | >100 µM
C/C(=C/CC[C@@H](C)[C@H]1CC[C@@]2(C)C3CCC4C(C)(C)C(=O)CC[C@@]45CC35CC[C@]12C)C(=O)O | BEL-7402 | MTT | - | 14.27 µM
COc1cc2c(cc1OC)-c1c3c(cc4ccnc(c14)C2=O)OCO3 | P-388 | sulforhodamine / absorbance | - | 9.6 µM
CC(C)(C)NC(=O)NC(=S)NC(=O)c1ccccc1 | MDCK | MTS | - | >300 µM
C=CCS/C(Nc1cccc(C(F)(F)F)c1)=C(/C#N)S(=O)(=O)c1ccccc1 | HeLa | MTT / absorbance | - | 3.3 µM
C/C(=N\OCc1ccc(F)cc1)c1c(C)cc(=O)n(O)c1O | HepDES19 | MTS | 3 d | 81 µM
COc1cc(OC)nc(NC(=O)NC(=O)c2c(F)cccc2F)n1 | MDCK | MTS | - | >300 µM
CC(C)=CCC[C@]1(C)C=Cc2c(O)c3c(c(CC=C(C)C)c2O1)O[C@@]12C(=C[C@H]4CC1C(C)(C)O[C@]2(C/C=C(/C)C(N)=O)C4=O)C3=O | Jurkat cells | luminescence | - | 1.3 µM
C/C=C/c1ccc2c(c1)[C@H](C)[C@@H](c1ccc(O)cc1)O2 | HT-29 | sulforhodamine / absorbance | - | 41.5 µM
C=C1C(C(C)C2CC=C(C)C(=O)O2)=CC[C@]2(C)C1C[C@]1(O)C=C3C=CC(=O)OC(C)(C)C3CCC21 | HL-60 | MTT | - | 3.96 µM
CS/C(Nc1ccc(C(F)(F)F)cc1)=C(/C#N)S(=O)(=O)c1ccccc1 | HeLa | MTT / absorbance | - | 23.4 µM
C[C@@H]1O[C@@H](OC[C@H]2O[C@@H](Oc3c(-c4ccc(OS(=O)(=O)O)c(OS(=O)(=O)O)c4)oc4cc(OS(=O)(=O)O)cc(OS(=O)(=O)O)c4c3=O)[C@H](OS(=O)(=O)O)[C@@H](OS(=O)(=O)O)[C@@H]2OS(=O)(=O)O)[C@H](OS(=O)(=O)O)[C@H](OS(=O)(=O)O)[C@H]1OS(=O)(=O)O | TZM-b1 | - | - | 2800 µM
OCc1cccc(Nc2ccnc3cc(Cl)ccc23)c1 | HeLa cells | MTT | - | >100 µM
CS/C(Nc1cccc(C(F)(F)F)c1)=C(/C#N)S(=O)(=O)c1ccc(Cl)cc1 | HeLa | MTT / absorbance | - | 3.05 µM
CC(C)Nc1cccnc1N1CCN(C(=O)c2cc3cc(NS(C)(=O)=O)ccc3[nH]2)CC1 | HT4lacZ-1/IIIB | - | - | >15 µM
COc1cc(OC)nc(NC(=S)NC(=O)C2C(/C=C(/Cl)C(F)(F)F)C2(C)C)n1 | MDCK | MTS | - | >300 µM
CC(=O)OC1C(COC(=O)/C=C/c2ccc(O)cc2)OC(COC(=O)/C=C/c2ccc(O)cc2)(OC2OC(COC(=O)/C=C/c3ccc(O)cc3)[C@@H](OC(C)=O)[C@H](O)[C@H]2O)C1OC(=O)/C=C/c1ccc(O)cc1 | HCT116 | MTT | - | 3.24 µg/mL
CC(C)(C)NC(=O)NC(=S)NC(=O)c1ccc(-c2ccccc2Cl)o1 | MDCK | MTS | - | >300 µM
NC(=O)c1cn([C@@H]2O[C@H](CO)[C@@H](O)[C@@H]2O)c2ncnc(N)c12 | MEF | - | - | 9 µM
O=C(/C=C(\O)c1ncn[nH]1)c1ccc(Cc2ccc(F)cc2)o1 | C8166 | resazurin | - | 25 µM
N/C(=N/O)c1cn([C@H]2C[C@H](O)[C@@H](CO)O2)c2ncnc(N)c12 | MEF | - | - | 85 µM
Oc1ccc(Cl)c2cccnc12 | Jurkat cells | luminescence | - | >100 µM
O=C(O)C(=O)CC(=O)c1cc(OCc2ccccc2)cc(OCc2ccccc2)c1 | CEMfx | MTT | - | >100 µM
CS/C(Nc1ccccc1)=C(/C#N)S(=O)(=O)c1ccccc1 | HeLa | MTT / absorbance | - | >100 µM
CC1=C(O)C(=O)C=C2C1=CC=C1[C@@]2(C)CC[C@@]2(C)[C@@H]3C[C@](C)(C(=O)O)CC[C@]3(C)CC[C@]12C | Jurkat cells | luminescence | - | >100 µM
C/C=C/c1ccc2c(c1)[C@H](C)[C@@H](c1ccc(OC)c(OC)c1)O2 | HT-29 | sulforhodamine / absorbance | - | 40.3 µM
Cc1cn([C@H]2C[C@H](N=[N+]=[N-])[C@H](CO)O2)c(=O)n(Cc2cccc(Nc3ccnc4cc(Cl)ccc34)c2)c1=O | HeLa cells | MTT | - | >100 µM
O=C(NCc1ccc(F)cc1)c1nc(N2CCCCS2(=O)=O)c2cccnc2c1O | C8166 | resazurin | - | 3.1 µM
NC(=S)c1cn([C@@H]2O[C@H](CO)[C@@H](O)[C@@H]2O)c2ncnc(N)c12 | MEF | - | - | 1.7 µM
COC1=CC(=O)C(O)=C/C1=C\C=C\c1ccccc1 | Jurkat cells | luminescence | - | >100 µM
COC(=O)/C=C/C(=O)c1ccc(OC)cc1 | THP-1 | MTT / absorbance | - | 7.61 µg/mL
Cc1cc(=O)[nH]c(NC(=S)NC(=O)c2ccc(Cl)nc2)n1 | MDCK | MTS | - | >300 µM
Nc1ncnc2c1ncn2C[C@@H](CO)OCP(=O)(O)O | HEF | - | - | 52 µg/mL
CC(=O)NC[C@H]1CN(c2ccc(N3CCN(c4ccc5nccn5n4)CC3)c(F)c2)C(=O)O1 | THP-1 | MTT | - | >100 µg/mL

Repeating the final 5 entries:

COC1=CC(=O)C(O)=C/C1=C\C=C\c1ccccc1 ; cell line: Jurkat cells ; method: luminescence ; result: >100 µM
COC(=O)/C=C/C(=O)c1ccc(OC)cc1 ; cell line: THP-1 ; method: MTT / absorbance ; result: 7.61 µg/mL
Cc1cc(=O)[nH]c(NC(=S)NC(=O)c2ccc(Cl)nc2)n1 ; cell line: MDCK ; method: MTS ; result: >300 µM
Nc1ncnc2c1ncn2C[C@@H](CO)OCP(=O)(O)O ; cell line: HEF ; result: 52 µg/mL
CC(=O)NC[C@H]1CN(c2ccc(N3CCN(c4ccc5nccn5n4)CC3)c(F)c2)C(=O)O1 ; cell line: THP-1 ; method: MTT ; result: >100 µg/mL

Blank or dashed fields: not listed here. Neighbouring rows are from separate reports.